Measurements as given in patent publication US10233206B2, “D-fagomine for the control of inflammatory processes related to an overactivation of the humoral immune response” (priority 2013, dated 2019).

Assay: pH of organ culture supernatant

Question: With OC[C@H]1NCC[C@@H](O)[C@@H]1O (stereo in doubt) [D-fagomine, (2R, 3R, 4R)-2-hydroxymethylpiperidine-3,4-diol] as the compound, how does the pH (E. coli + D-fagomine 50 μg/ml) read?
Answer: Its pH is 7.65.

Question: And the pH (E. coli + D-fagomine 500 μg/ml)?
Answer: Its pH is 7.59.

Question: And the pH (E. coli + D-fagomine 5000 μg/ml)?
Answer: Its pH is 7.65.
